For one molecule, EC50 results are on record in PMC9708728 (Frontiers in Immunology, 2022).

In this experiment the target is SARS-CoV-2 RBD ([…]) with a C-terminal His tag (SARS-CoV-2). In words: ELISA. The note with it: both partners purified. (In general: An ELISA detects its analyte on a solid surface through an enzyme-linked reagent.)

B1: human angiotensin-converting enzyme II fused to a human IgG Fc fragment (hACE2-Fc) (Fc fusion)
chain: not shown
A word on the EC50: it is the concentration at which the effect is half-maximal. On to B1, for which the half-maximal effective concentration (EC50) was 9.1 nM.
